Anti-infective test results gathered from many reports (values: NIAID ChemDB through PubChem).

All rows: whole-cell or culture tests; organism: Candida albicans; endpoint: MIC

An empty or dashed field is not shown. Rows are shuffled and stem from different studies.

compound | strain or isolate | read by | value
CCCCCCCCCCCCOC[N+](C)(C)CCCCCCCC | ATCC 10231 |  | 12.8 µM
CCCCCOc1ccc(-c2ccc(-c3ccc(C(=O)N[C@H]4CCCNC(=O)[C@@H]5C[C@H](N)CN5C(=O)[C@H](CCCCN)NC(=O)[C@H](CCc5ccc(O)cc5)NC(=O)[C@@H]5C[C@@H](O)CN5C(=O)[C@H]([C@@H](C)O)NC4=O)cc3)cc2)cc1 | ATCC 10231 |  | 0.78 µg/mL
C/C(=N/O)C(Cl)(Cl)Cl |  |  | 3220 µM
Fc1ccccc1CC(Cc1ccc(-c2ccccc2)cc1)n1ccnc1 |  |  | ≥5.5 µM
COCCN1CCN(CCOC)[C]1=[Ru]([Cl])[Cl].Cc1c(C)c(C)c(C)c(C)c1C |  |  | >800 µg/mL
Cc1ncc([N+](=O)[O-])n1CCN1C(=O)/C(=C/c2ccccc2)N=C1c1ccccc1 |  |  | 250 µg/mL
CCCCCOc1ccc(-c2ccc(-c3ccc(C(=O)N[C@H]4CCCNC(=O)[C@@H]5C[C@H](NC(=O)C[N+](C)(C)C)CN5C(=O)[C@H]([C@@H](C)O)NC(=O)[C@H](CCc5ccc(O)cc5)NC(=O)[C@@H]5C[C@@H](O)CN5C(=O)[C@H]([C@@H](C)O)NC4=O)cc3)cc2)cc1 | ATCC 38247 |  | 6.25 µg/mL
Cc1ccc(-c2csc(=Nc3ccccc3)n2CCn2c([N+](=O)[O-])cnc2C)cc1 |  |  | 250 µg/mL
Cc1c(O)cccc1C(=O)N[C@@H](CSc1ccccc1)[C@H](O)CN1C[C@H]2CCCC[C@H]2C[C@H]1C(=O)NC(C)(C)C | I52 |  | >64 µg/mL
CCCCCCCCCCCC[N+](C)(C)COC1CCCC1 | ATCC 10231 |  | 144 µM
CC(C)CC1NC(=O)CC(CCCCCCCCC(C)O)OC(=O)C(CC(C)C)NC(=O)C(CC(C)C)NC(=O)C(CC(C)C)NC(=O)C(C(C)C)NC(=O)C(CC(=O)O)NC(=O)C(CC(C)C)NC1=O | Clinical isolate | absorbance | 2 µg/mL
CCC(C)n1ncn(-c2ccc(N3CCN(c4ccc(OC[C@H]5CO[C@](Cn6cncn6)(c6ccc(Cl)cc6Cl)O5)cc4)CC3)cc2)c1=O | Clinical isolates |  | 0.898 µg/mL
CCCCC1C(=O)N(c2ccccc2)N(c2ccccc2)C1=O | ATCC 90028 | resazurin | >100 µM
Clc1ccc(CN(Cc2ccc(-c3ccccc3)cc2)n2ccnc2)c(Cl)c1 |  |  | 6.2 µM
O=C(Nc1c(F)cccc1F)OCCCN1CCN(c2nc3ccccc3s2)CC1 | ATCC48130 |  | 0.26 µg/mL
COc1c(CN(C)C)cccc1C1OC(c2ccncc2)=NN1C(C)=Nc1ccccc1Cl | MTCC 227 |  | 6.25 µg/mL
CO[C@@]12OC(=O)C(C)=C1C1=C3[C@](C)([C@@H]4C[C@@H]4[C@@]3(O)C[C@@H]3[C@]14OC(=O)C1=C4C[C@H]4[C@](O)(COC(=O)/C(C)=C/COC(=O)CCC(=O)OC1)[C@H]1C[C@H]1[C@]34C)[C@H]2O | ATCC 90028 | broth dilution | 8 µg/mL
O=[N+]([O-])c1cccc(/C=N\O)c1 |  |  | 6020 µM
COc1ccc(CN2CCN(Cc3ccc(OC)cc3)[C]2=[Ru]([Cl])[Cl])cc1.Cc1c(C)c(C)c(C)c(C)c1C |  |  | 200 µg/mL
CCOC(=O)C1C(=O)C=C(c2ccc(Cl)cc2)CC1c1ccc(C2CC(c3ccc(Cl)cc3)=CC(=O)C2C(=O)OCC)cc1 | Clinical isolate |  | 12.5 µg/mL
O=[N+]([O-])c1ccc(/C=N\O)cc1 |  |  | 6020 µM
CCCCCCCCOc1ccc(C(=O)NC2C[C@@H](O)[C@@H](O)NC(=O)C3[C@@H](O)[C@@H](C)CN3C(=O)C(C(C)O)NC(=O)C([C@H](O)[C@@H](O)c3ccc(O)cc3)NC(=O)C3C[C@@H](O)CN3C(=O)C(C(C)O)NC2=O)cc1 | Isolate 5 |  | 2 µg/mL
CCC(O)(C#Cc1c(C)nc(N)nc1N)CC |  |  | 12.5 µg/mL
CCOC(=O)C1C(=O)C=C(c2ccc(Br)cc2)CC1c1ccc(C2CC(c3ccc(Br)cc3)=CC(=O)C2C(=O)OCC)cc1 | Clinical isolate |  | 12.5 µg/mL
CC1(C)O[C@H]2OC(COCC(O)CNCCCCCCCCNC(O)COCC3O[C@@H]4OC(C)(C)O[C@@H]4[C@H]4OC(C)(C)O[C@@H]34)[C@@H]3OC(C)(C)O[C@@H]3[C@H]2O1 |  |  | >50 µg/mL
Cc1ncc([N+](=O)[O-])n1CCn1c(-c2ccc(Cl)cc2)csc1=Nc1ccccc1 |  |  | 250 µg/mL
CCCCCOc1ccc(-c2ccc(-c3ccc(C(=O)N[C@H]4CCCNC(=O)[C@@H]5C[C@H](N)CN5C(=O)[C@H](CO)NC(=O)[C@H](CCc5ccc(O)cc5)NC(=O)[C@@H]5C[C@@H](O)CN5C(=O)[C@H]([C@@H](C)O)NC4=O)cc3)cc2)cc1 | ATCC 10231 |  | 0.1 µg/mL
CC1=C2C3=C4[C@](C)([C@@H]5C[C@@H]5[C@@]4(O)C[C@@H]4[C@]35OC(=O)C3=C5C[C@H]5[C@](O)(COC(=O)/C(C)=C/COC(=O)CCC(=O)OC3)[C@H]3C[C@H]3[C@]45C)[C@@H](O)[C@]2(O)OC1=O | ATCC 90028 | broth dilution | 8 µg/mL
CCn1cnc2ccccc21.Cc1c(C)c(C)c(C)c(C)c1C.[Cl][Ru][Cl] |  |  | 400 µg/mL
O/N=C\c1ccccc1O |  |  | 1800 µM
CCOC(=O)C1C(=O)C=C(c2ccc(F)cc2)CC1c1ccc(C2CC(c3ccc(F)cc3)=CC(=O)C2C(=O)OCC)cc1 | Clinical isolate |  | 6.25 µg/mL
COC(=O)/C(C)=C1\C(=O)[C@H](O)[C@]2(C)C3=C(C[C@@H]4[C@]5(OC(=O)C6=C5C[C@H]5[C@](O)(COC(=O)/C(C)=C/COC(=O)CCC(=O)OC6)[C@H]6C[C@H]6[C@]45C)[C@H]31)[C@H]1C[C@H]12 | ATCC 90028 | broth dilution | 4 µg/mL
CCN1C=NCC1.Cc1ccc(C(C)C)cc1.[Cl][Ru][Cl] |  |  | 400 µg/mL
Cc1ncc([N+](=O)[O-])n1CCn1c(-c2ccc(CO)cc2)csc1=Nc1ccccc1 |  |  | 250 µg/mL
COc1ccc(-c2csc(N3N=C(c4cccs4)CC3c3ccc(OC)cc3)n2)cc1 | Clinical isolates |  | 125 µg/mL
Cc1ccccc1CC(Cc1ccc(-c2ccccc2)cc1)n1ccnc1 |  |  | 33 µM
Cc1nc(N)nc(N)c1C#CC(C)(C)C |  |  | 0.4 µg/mL
O/N=C\c1ccccc1 |  |  | 4130 µM
Cc1ccc(/C=C2/SC(=O)N(CCn3c([N+](=O)[O-])cnc3C)C2=O)cc1 |  |  | 125 µg/mL
c1ccc(-c2csc(N3N=C(c4cccs4)CC3c3ccccc3)n2)cc1 | Clinical isolates |  | 62.5 µg/mL
Cc1nc(N)nc(N)c1C#Cc1ccccc1 |  |  | 0.4 µg/mL
CCCCCCCCCOc1ccc(N2CCN(c3ccc(C(=O)N[C@H]4CCCNC(=O)[C@@H]5C[C@H](N)CN5C(=O)[C@H]([C@@H](C)O)NC(=O)[C@H](CCc5ccc(O)cc5)NC(=O)[C@@H]5C[C@@H](O)CN5C(=O)[C@H]([C@@H](C)O)NC4=O)cc3)CC2)cc1 | ATCC 38247 |  | 0.2 µg/mL
CCCCCCCC[N+](C)(C)COCCC(C)CCCC(C)C | ATCC 10231 |  | 13.7 µM
CCC(C)C(NC)C(=O)NC1C(=O)OC(C(C)C)C(=O)OC(CC(C)C)C(=O)NC(C(C)CC)C(=O)N(C)C(CC(C)C)C(=O)NC(C(C)O)C(=O)N(C)C(C(C)C)C(=O)NC(C)C(=O)N(C)C(CC(C)C)C(=O)OC1C | ATCC 90028 |  | 2.5 µg/mL
CN(C)C(=O)c1ccc2nc(NC(=O)[C@@H]3CCC[C@H](NCc4ccc5ccccc5c4)C3)sc2c1 |  |  | 0.09 µg/mL
Fc1ccc(C2CC(c3cccs3)=NN2c2nc(-c3ccc(Cl)cc3)cs2)cc1 | Clinical isolates |  | 125 µg/mL
CCC(C)C#Cc1c(C)nc(N)nc1N |  |  | 0.4 µg/mL
Cc1ccc(-c2csc(N3N=C(c4cccs4)CC3c3ccc4c(c3)OCO4)n2)cc1 | Clinical isolates |  | 125 µg/mL
COc1ccccc1CC(Cc1ccc(-c2ccccc2)cc1)n1ccnc1 |  |  | ≥5.5 µM

For reference, 5 entries again:

{"compound": "CCCCCCCCCOc1ccc(N2CCN(c3ccc(C(=O)N[C@H]4CCCNC(=O)[C@@H]5C[C@H](N)CN5C(=O)[C@H]([C@@H](C)O)NC(=O)[C@H](CCc5ccc(O)cc5)NC(=O)[C@@H]5C[C@@H](O)CN5C(=O)[C@H]([C@@H](C)O)NC4=O)cc3)CC2)cc1", "strain or isolate": "ATCC 38247", "value": "0.2 µg/mL"}
{"compound": "Cc1ncc([N+](=O)[O-])n1CCn1c(-c2ccc(CO)cc2)csc1=Nc1ccccc1", "value": "250 µg/mL"}
{"compound": "CCN1C=NCC1.Cc1ccc(C(C)C)cc1.[Cl][Ru][Cl]", "value": "400 µg/mL"}
{"compound": "c1ccc(-c2csc(N3N=C(c4cccs4)CC3c3ccccc3)n2)cc1", "strain or isolate": "Clinical isolates", "value": "62.5 µg/mL"}
{"compound": "Cc1c(O)cccc1C(=O)N[C@@H](CSc1ccccc1)[C@H](O)CN1C[C@H]2CCCC[C@H]2C[C@H]1C(=O)NC(C)(C)C", "strain or isolate": "I52", "value": ">64 µg/mL"}